{"source": "paper PMC12977544", "about": "“Phenotypic high-throughput screening identifies modulators of gut microbial choline metabolism” (mBio, 2026)", "system": "gut microbial community of conventional mice", "assay": "16S rRNA sequencing of fecal samples of conventional mice", "assay_type": "in vivo, Mus musculus C57BL/6", "settings": "30 mg/kg, before vs after treatment"}
{"compound": "Cc1ccc(-c2cc(C(=O)NCCCCCN3CCCCCC3)c(C)[nH]2)cc1C", "note": "[Compound 45]", "values": [{"measurement": "Alpha diversity of the gut microbial community", "value": "moderately decreased"}, {"measurement": "Effect on genus-level taxa of gut microbiome", "value": "no significantly altered genus-level taxa"}]}
